Anti-infective test results gathered from many reports (values: NIAID ChemDB through PubChem).

All rows: growth or infection tests; agent: HIV-1; cells: MT-2; endpoint: EC50

Rows are shuffled and stem from different studies. ECn: concentration that inhibits the pathogen or its effect by n%. Two numbers with a dash give a range or band. Blank or dashed fields: not listed here.

structure,strain or isolate,mutations,read by,result
N#CN=C1N(CC2CCC2)[C@H](Cc2ccccc2)[C@H](O)[C@@H](O)[C@@H](Cc2ccccc2)N1CC1CCC1,RF,,hybridisation,<0.84 µM
C=C(C)[C@@H]1CC[C@]2(NCCN3C[C@@H]4C[C@@H]3CO4)CC[C@]3(C)[C@H](CC[C@@H]4[C@@]5(C)CC=C(c6ccc(C(=O)O)cc6)C(C)(C)[C@@H]5CC[C@]43C)[C@@H]12,NL4-3,,luciferase,<0.1 µM
CCOP(=O)(COc1ccc(C[C@H](NC(=O)O[C@H]2CO[C@H]3OCC[C@H]32)[C@H](O)CN(CC(C)C)S(=O)(=O)c2ccc(OC)cc2)cc1)OCC,IIIB,K112M K113E V128I M200I H219P,p24 / ELISA,0.008 µM
Nc1nc(NC2CC2)c2ncn([C@H]3CC[C@@H](CO)O3)c2n1,NL4-3,,,13.06 µM
CCCCC#CCSc1ccccc1OC(C)=O,3096 multinucleoside RES,,,4 µM
CC(C)=CCN1C(=NC#N)N(CC=C(C)C)[C@H](Cc2ccccc2)[C@H](O)[C@@H](O)[C@H]1Cc1ccccc1,RF,,hybridisation,<4.7 µM
CC(=O)N[C@H](C(=O)N[C@@H](Cc1ccc(OCc2ccccc2)cc1)[C@@H](O)[C@H](O)[C@H](Cc1ccc(OCc2ccccc2)cc1)NC(=O)[C@@H](NC(C)=O)C(C)C)C(C)C,RF,,plaque count / virus yield,<0.3 µg/mL
O=C1N(Cc2ccc([N+](=O)[O-])cc2)[C@H](Cc2ccccc2)[C@H](O)[C@@H](O)[C@@H](Cc2ccccc2)N1Cc1ccc([N+](=O)[O-])cc1,RF,,hybridisation,<8.4 µM
CC(C)[C@@H]1CC[C@]2(NC(=O)CN3C[C@@H]4C[C@@H]3CN4Cc3ccccc3)CC[C@]3(C)[C@H](CC[C@@H]4[C@@]5(C)CC=C(c6ccc(C(=O)O)cc6)C(C)(C)[C@@H]5CC[C@]43C)[C@@H]12,NL4-3,,luciferase,<0.1 µM
O=C(Nc1cc(S(=O)(=O)O)cc2cc(S(=O)(=O)O)c(N=Nc3ccc(N=Nc4c(S(=O)(=O)O)cc5cc(S(=O)(=O)O)cc(NC(=O)c6cccc(Cl)c6Cl)c5c4O)cc3)c(O)c12)c1ccc(Cl)cc1Cl,RF,,,0.2–0.28 µg/mL
Cc1cn([C@H]2C[C@H](N=[N+]=[N-])[C@@H](CO)O2)c(=O)[nH]c1=O,LAI,,,~1 µM
N#CN=C1N(Cc2cccc(CO)c2)[C@H](Cc2ccccc2)[C@H](O)[C@@H](O)[C@@H](Cc2ccccc2)N1Cc1cccc(CO)c1,RF,,hybridisation,<0.59 µM
CC(C)(C)NC(=O)[C@@H]1C[C@@H]2CCCC[C@@H]2CN1C[C@@H](O)[C@H](Cc1ccccc1)NC(=O)[C@H](CC(N)=O)NC(=O)c1ccc2ccccc2n1,RF,,plaque count / virus yield,<0.004 µg/mL
N#CN=C1N(CC2CCCC2)[C@H](Cc2ccccc2)[C@H](O)[C@@H](O)[C@@H](Cc2ccccc2)N1CC1CCCC1,RF,,hybridisation,<0.35 µM
O=C1N(CCCCCO)[C@H](Cc2ccccc2)[C@H](O)[C@@H](O)[C@@H](Cc2ccccc2)N1Cc1ccc(CO)cc1,,,,<0.108 µM
N#CN=C1N(Cc2cccc([N+](=O)[O-])c2)[C@H](Cc2ccccc2)[C@H](O)[C@@H](O)[C@@H](Cc2ccccc2)N1Cc1cccc([N+](=O)[O-])c1,RF,,hybridisation,<17.7 µM
Nc1nc(N)c2ncn([C@H]3C=C[C@@H](CO)O3)c2n1,NL4-3,,,16.16 µM
O=C1N(CCCCCO)[C@H](Cc2ccccc2)[C@H](O)[C@@H](O)[C@@H](Cc2ccccc2)N1Cc1ccccc1,,,,<0.398 µM
COC(=O)N[C@H](C(=O)N[C@@H](Cc1ccccc1)[C@@H](O)CN(Cc1ccc(-c2ccccn2)cc1)NC(=O)[C@@H](NC(=O)OC)C(C)(C)C)C(C)(C)C,IIIB,D437N L441P,p24 / ELISA,0.0011 µM
Nc1nc2c(ncn2[C@H]2CC[C@@H](CO)O2)c(=O)[nH]1,NL4-3,,,7.29 µM
Cc1ccc(S(=O)(=O)N(CC(C)C)C[C@@H](O)[C@H](Cc2ccccc2)NC(=O)O[C@H]2CO[C@H]3OCC[C@H]32)cc1,IIIB,L441P,p24 / ELISA,0.008 µM
O=C1N(CCCCCO)[C@H](Cc2ccccc2)[C@H](O)[C@@H](O)[C@@H](Cc2ccccc2)N1CC1CC1,,,,<0.814 µM
CC(C)OC(=O)OCOP(=O)(CO[C@H](C)Cn1cnc2c(N)ncnc21)OCOC(=O)OC(C)C,N119 (NNRTI-resistant RT Y181C),RT-Y181C,p24,0.001 µM
Nc1cccc(CN2C(=O)N(Cc3cccc(N)c3)[C@H](Cc3ccccc3)[C@H](O)[C@@H](O)[C@H]2Cc2ccccc2)c1,RF,,hybridisation,<0.13 µM
O=C1N(CCCCCO)[C@H](Cc2ccccc2)[C@H](O)[C@@H](O)[C@@H](Cc2ccccc2)N1CCCCCO,,,,<0.953 µM
CCCN1C(=NC#N)N(CCC)[C@H](Cc2ccccc2)[C@H](O)[C@@H](O)[C@H]1Cc1ccccc1,RF,,hybridisation,<7.4 µM
CC(C)[C@H](NC(=O)Cc1ccccn1)C(=O)N[C@@H](Cc1ccccc1)[C@@H](O)[C@H](O)[C@H](Cc1ccccc1)NC(=O)[C@@H](NC(=O)Cc1ccccn1)C(C)C,RF,,plaque count / virus yield,<1.3 µg/mL
Nc1ccc(CN2C(=O)N(Cc3ccc(N)cc3)[C@H](Cc3ccccc3)[C@H](O)[C@@H](O)[C@H]2Cc2ccccc2)cc1,RF,,hybridisation,<0.11 µM
Nc1nc(N2CCCC2)c2ncn([C@H]3C=C[C@@H](CO)O3)c2n1,NL4-3,,,11.07 µM